According to patent US20220275059A1:

Molecular target: MERS-S on pseudotyped VSV particles (MERS-S carrying a 16-a.a. cytoplasmic tail truncation) (MERS-CoV) (UniProt K9N5Q8)

With “isotype control (irrelevant antibody recognizing the Strep-tag affinity tag)” the 50% inh titer, MERS-S VSV ps., column H2L2 MAb, row IsotypeCtrl was over 20 µg/mL.
